Experimental data from US20240116879A1, “AMILORIDE DERIVATIVES AND METHODS OF USING SAME FOR THE TREATMENT OF VIRAL INFECTIONS” (priority 2020, published 2024).

System: SARS-CoV-2 5′-region SL1
Format: binding
Conditions: 5:1 DMA to RNA

| SMILES | NMR signal perturbation of SL1 (in words) | share of total observed correlation peaks with severe line broadening, SL1 (A- and C-selectively labeled SL1) |
| --- | --- | --- |
| CN(C)c1nc(N)c(C(=O)NC(=N)N)nc1-c1ccccc1 [DMA-132] | induced the migration of several correlation peaks to new spectral positions |  |
| CN(C)c1nc(N)c(C(=O)NC(=N)N)nc1C#Cc1ccccc1 [DMA-135] |  | ~50% |
| CN(C)c1nc(N)c(C(=O)NC(=N)N)nc1-c1ccc(-c2ccccc2)cc1 [DMA-155] | induced the migration of several correlation peaks to new spectral positions |  |
